Experimental data as given in patent publication US20240122867A1, “CORONAL PROTEIN-COATED NANOPARTICLES AND USES THEREOF” (UNIVERSITY OF CENTRAL FLORIDA RESEARCH FOUNDATION, INC., priority 2021, published 2024).

Test system: coronal proteins on NPs
Parameters: species or system mouse
Conditions: for V5 Sera_Nanoparticles Quantitative Value (Normalized Total Spectra): HBPE-NPs incubated 1 h with IAV day 5 (V5) mouse sera, 20:1 NP:sera, centrifuged and washed; for V5 Sera Alone (Control) Quantitative Value (Normalized Total Spectra): IAV day 5 (V5) mouse sera alone, no NPs (sera-only control)

Molecule	V5 Sera_Nanoparticles Quantitative Value (Normalized Total Spectra)	V5 Sera Alone (Control) Quantitative Value (Normalized Total Spectra)
Nuclear receptor subfamily 1 group D member 2 (protein, UniProt Q60674 1-576, looked up) Nuclear receptor subfamily 1 …: MELNAGGVIAYISSSSSASSPASCHSEGSENSFQSSSSSVPSSPNSSNCDANGNPKNADISSIDGVLKSDRTDCPVKTGKTSAPGMTKSHSGMTKFSGMVLLCKVCGDVASGFHYGVHACEGCKGFFRRSIQQNIQYKKCLKNENCSIMRMNRNRCQQCRFKKCLSVGMSRDAVRFGRIPKREKQRMLIEMQSAMKTMMNTQFSGHLQNDTLAEQHDQSALPAQEQLRPKSQLEQENIKNTPSDFAKEEVIGMVTRAHKDTFLYNQEHRENSSESMPPQRGERIPRNMEQYNLNQDHRGSGIHNHFPCSERQQHLSGQYKGRNIMHYPNGHAVCIANGHCMNFSSAYTQRVCDRIPVGGCSQTENRNSYLCNTGGRMHLVCPMSKSPYVDPQKSGHEIWEEFSMSFTPAVKEVVEFAKRIPGFRDLSQHDQVNLLKAGTFEVLMVRFASLFDAKERTVTFLSGKKYSVDDLHSMGAGDLLSSMFEFSEKLNALQLSDEEMSLFTAVVLVSADRSGIENVNSVEALQETLIRALRTLIMKNHPNEASIFTKLLLKLPDLRSLNNMHSEELLAFKVHP	1.0879	0
Hepatocyte growth factor-like protein (protein, UniProt P26928 19-716, looked up) Hepatocyte growth factor-like …: QRSPLNDFQLFRGTELRNLLHTAVPGPWQEDVADAEECARRCGPLLDCRAFHYNMSSHGCQLLPWTQHSLHTQLYHSSLCHLFQKKDYVRTCIMDNGVSYRGTVARTAGGLPCQAWSRRFPNDHKYTPTPKNGLEENFCRNPDGDPRGPWCYTTNRSVRFQSCGIKTCREAVCVLCNGEDYRGEVDVTESGRECQRWDLQHPHSHPFQPEKFLDKDLKDNYCRNPDGSERPWCYTTDPNVEREFCDLPSCGPNLPPTVKGSKSQRRNKGKALNCFRGKGEDYRGTTNTTSAGVPCQRWDAQSPHQHRFVPEKYACKDLRENFCRNPDGSEAPWCFTSRPGLRMAFCHQIPRCTEELVPEGCYHGSGEQYRGSVSKTRKGVQCQHWSSETPHKPQFTPTSAPQAGLEANFCRNPDGDSHGPWCYTLDPDILFDYCALQRCDDDQPPSILDPPDQVVFEKCGKRVDKSNKLRVVGGHPGNSPWTVSLRNRQGQHFCGGSLVKEQWVLTARQCIWSCHEPLTGYEVWLGTINQNPQPGEANLQRVPVAKAVCGPAGSQLVLLKLERPVILNHHVALICLPPEQYVVPPGTKCEIAGWGESIGTSNNTVLHVASMNVISNQECNTKYRGHIQESEICTQGLVVPVGACEGDYGGPLACYTHDCWVLQGLIIPNRVCARPRWPAIFTRVSVFVDWINKVMQLE	1.0879	0
Platelet glycoprotein Ib alpha chain (protein, UniProt O35930 17-734, looked up) Platelet glycoprotein Ib …: QHTCSISKVTSLLEVNCENKKLTALPADLPADTGILHLGENQLGTFSTASLVHFTHLTYLYLDRCELTSLQTNGKLIKLENLDLSHNNLKSLPSLGWALPALTTLDVSFNKLGSLSPGVLDGLSQLQELYLQNNDLKSLPPGLLLPTTKLKKLNLANNKLRELPSGLLDGLEDLDTLYLQRNWLRTIPKGFFGTLLLPFVFLHANSWYCDCEILYFRHWLQENANNVYLWKQGVDVKDTTPNVASVRCANLDNAPVYSYPGKGCPTSSGDTDYDDYDDIPDVPATRTEVKFSTNTKVHTTHWSLLAAAPSTSQDSQMISLPPTHKPTKKQSTFIHTQSPGFTTLPETMESNPTFYSLKLNTVLIPSPTTLEPTSTQATPEPNIQPMLTTSTLTTPEHSTTPVPTTTILTTPEHSTIPVPTTAILTTPKPSTIPVPTTATLTTLEPSTTPVPTTATLTTPEPSTTLVPTTATLTTPEHSTTPVPTTATLTTPEHSTTPVPTTATLTTPEPSTTLTNLVSTISPVLTTTLTTPESTPIETILEQFFTTELTLLPTLESTTTIIPEQNSFLNLPEVALVSSDTSESSPFLNSDFCCFLPLGFYVLGLLWLLFASVVLILLLTWTWHVTPHSLDMEQSAALATSTHTTSLEVQRARQVTMPRAWLLFLQGSLPTFRSSLFLWVRPNGRVGPLVAGRRPSALSQGRGQDLLGTVGIRYSGHSL	1.0879	0
